PubChem BioAssay AID624099 | ICCB-Longwood – 2012
The deposit covers about 21,000 reagents; this is an unselected part. In the full data, 497 (2.4%) got an active call. 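Higher z means weaker E2 silencing; only reporter increases were scored, and knock-downs that hurt cell survival may mask genuine repressor factors.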

Purpose: 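Knock-downs relieving repression by E2 of an HPV18 LCR luciferase reporter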 (primary screen)
Cell system: human C33A cervical carcinoma cells (HPV-negative) stably expressing BPV1 E2 and an HPV18 LCR luciferase reporter
Reagent: siRNA pool against human genes, 40 nM
Duration: 72 h
Detection: 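HPV18 LCR reporter light per well, converted to plate-wise z-scores that exclude control wells, and averaged over triplicate plates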
Reading the numbers: mean z-score and z-score: higher = stronger reporter signal, weaker E2 silencing
Hit rule: 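Mean z ≥ 2 together with z ≥ 2 in two or more of the three replicates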

target | mean z-score | z-score, replicate A | z-score, replicate B | z-score, replicate C | outcome
LOC388019 (retired record) | 1.27 | 1.03 | 1.12 | 1.67 | inactive
TKT | 2.7 | 2.98 | 2.46 | 2.66 | active
ARRDC2 | 0.68 | 0.67 | 0.82 | 0.56 | inactive
ESRP2 | -2.08 | -1.96 | -2.06 | -2.22 | inactive
PPDPF | 1.75 | 2.16 | 1.46 | 1.63 | inactive
PODXL | 0.35 | 0.43 | 0.26 | 0.35 | inactive
SMIM21 | -0.39 | -0.58 | 0.04 | -0.64 | inactive
PATZ1 | -0.23 | -0.28 | -0.14 | -0.27 | inactive
ATPAF1 | 1.33 | 1.2 | 1.73 | 1.06 | inactive
ICE1 | 1.89 | 2.01 | 1.55 | 2.1 | inactive
ZNF408 | -0.59 | -0.57 | -0.71 | -0.5 | inactive
XPA | -0.1 | 0.18 | -0.44 | -0.04 | inactive
APEX2 | -1.59 | -1.66 | -1.53 | -1.59 | inactive
KATNB1 | -0.87 | -0.81 | -0.95 | -0.85 | inactive
TMEM212 | -0.39 | -0.23 | -0.89 | -0.06 | inactive
SPPL2C | -0.23 | -0.23 | -0.15 | -0.3 | inactive
STAT5A | -0.61 | -0.77 | -0.64 | -0.43 | inactive
SORBS3 | -1.8 | -1.81 | -2 | -1.58 | inactive
SLC7A11 | -0.82 | -1.03 | -0.42 | -1 | inactive
MAGEA4 | -1.13 | -1.06 | -1.11 | -1.22 | inactive

Next part; the last 3 above are carried over.
target | mean z-score | z-score, replicate A | z-score, replicate B | z-score, replicate C | outcome
SORBS3 | -1.8 | -1.81 | -2 | -1.58 | inactive
SLC7A11 | -0.82 | -1.03 | -0.42 | -1 | inactive
MAGEA4 | -1.13 | -1.06 | -1.11 | -1.22 | inactive
DCANP1 | -0.29 | -0.26 | -0.7 | 0.1 | inactive
PNMA6A | 1.96 | 1.67 | 1.86 | 2.35 | inactive
OR5D16 | 0.29 | 0.03 | 0.56 | 0.27 | inactive
EFNA5 | -0.53 | -0.56 | -0.39 | -0.63 | inactive
LOC126772 (retired record) | 2.37 | 2.65 | 1.95 | 2.51 | active
LOC285422 | 1.95 | 1.55 | 2.19 | 2.09 | inactive
BHLHE22 | 0.62 | 0.06 | 0.83 | 0.96 | inactive
ACTR5 | -0.95 | -1.11 | -0.82 | -0.92 | inactive
USP19 | -0.91 | -1.03 | -0.7 | -1.01 | inactive
DUOXA2 | 0.25 | 0 | 0.24 | 0.51 | inactive
UTP15 | -1.06 | -1.41 | -0.96 | -0.82 | inactive
LIPH | 0.21 | 0.41 | 0.19 | 0.04 | inactive
ZNF514 | -0.17 | -0.23 | -0.25 | -0.03 | inactive
WDR5B | -0.44 | -0.3 | -0.43 | -0.6 | inactive
LOC402521 (retired record) | 1.21 | 1.43 | 1.1 | 1.11 | inactive
CLN5 | -0.21 | -0.38 | -0.2 | -0.03 | inactive
UQCR11 | -0.07 | -0.05 | -0.05 | -0.1 | inactive
TMEM51 | -0.53 | -0.2 | -0.1 | -1.3 | inactive
SOX4 | -0.2 | -0.24 | -0.17 | -0.21 | inactive
